Results of unrelated studies side by side (data: NIAID ChemDB).

All rows: host cell toxicity; cells: HepG2.2.15; measure: CC50

Neighbouring rows are from separate reports. CCn is the concentration with n% toxicity to the cells. An empty or dashed field is not shown.

compound | method | value
CCOC(=O)c1c(CSc2ccccc2)nc2c(O)c(CN3CCN(C)CC3)c(Br)cn12 | MTT | 31.5 µM
OCCc1c(OCc2c(F)cccc2F)nc2ccc(Cl)cc2c1-c1ccccc1Cl |  | 108.9 µM
CCOC(=O)c1c(CSc2ccc(Br)cc2)nc2c(O)c(CN(C)C)c(Br)cn12 | MTT | 126.2 µM
CC(=O)O[C@H]1C[C@@H]2C(=CC[C@@H]3[C@@]2(C)C(=O)C[C@]2(C)C([C@@](C)(O)C(=O)CCC(C)(C)OC(C)=O)[C@H](O)C[C@@]32C)C(C)(C)[C@@H]1OC(C)=O |  | 546.2 µM
CCOC(=O)c1c(CSc2cccc(OC)c2)nc2c(O)c(CN3CCOCC3)c(Br)cn12 | MTT | 17.6 µM
CS(=O)(=O)OCCc1c(OS(C)(=O)=O)nc2ccc(Cl)cc2c1-c1ccccc1Cl |  | 804.1 µM
OC[C@H]1O[C@@H](OCCc2ccc(O)c(O)c2)[C@H](O)[C@@H](O[C@@H]2OC[C@](O)(CO)[C@H]2O)[C@@H]1O | MTT | 1200 µM
Cc1ccc(CNc2ccc3nc[nH]c3c2)o1 | MTT | >50 µM
CCOC(=O)C1=C(CN2CC(F)(F)[C@@H]3[C@H]2CON3C[C@H](O)[C@@H](CC)C(=O)O)NC(c2nccs2)=N[C@H]1c1cccc(F)c1C | WST / absorbance | >100 µM
CCOC(=O)CCCOC(=O)[C@@]1(C)CC[C@]2(C)CC[C@]3(C)C(=CC[C@@H]4[C@@]5(C)CC[C@H](OC(=O)c6cc(=O)c7ccccc7o6)C(C)(C)[C@@H]5CC[C@]43C)[C@@H]2C1 |  | >1180 µM
C[C@H](C[C@H](OC(=O)CCOc1ccccc1)[C@@H](OC(=O)CCOc1ccccc1)C(C)(C)O)C1=C2C[C@H](OC(=O)CCOc3ccccc3)[C@H]3[C@@]4(C)CCC(=O)C(C)(C)[C@@H]4CC[C@]3(C)[C@@]2(C)CC1 |  | >950 µM
[N-]=[N+]=NCCc1c(Cl)nc2ccc(Cl)cc2c1-c1ccccc1Cl |  | >2510 µM
Nc1nc2c(ncn2[C@H]2CC[C@@H](CO)O2)c(=O)[nH]1 |  | 219 µM
[2H][C@@]1(c2cccc(F)c2C)N=C(c2nccs2)NC(CN2CC(F)(F)[C@@H]3[C@H]2CON3C[C@H](O)C(C)(C)C(=O)O)=C1C(=O)OCC | WST / absorbance | 100 µM
Cc1cccc(NC(=O)c2c(C)noc2C)c1 |  | >100 µM
OC[C@H]1OC2OC[C@H](c3ccc(O)c(O)c3)OC2[C@@H](O[C@@H]2OC[C@](O)(CO)[C@H]2O)[C@@H]1O | MTT | >2000 µM
CCCCCCCC(=O)O[C@@H](C[C@@H](C)C1=C2C[C@H](OC(=O)CCCCCCC)[C@H]3[C@@]4(C)CCC(=O)C(C)(C)[C@@H]4CC[C@]3(C)[C@@]2(C)CC1)[C@@H](OC(=O)CCCCCCC)C(C)(C)OC(=O)CCCCCCC |  | >1600 µM
COC(=O)C1=C(CN2CCN(c3ncccn3)CC2)NC(c2ncc(F)cc2F)=N[C@H]1c1ccc(F)cc1Cl |  | 10 µM
C[C@H](C[C@H](OC(=O)c1ccccc1)[C@@H](OC(=O)c1ccccc1)C(C)(C)OC(=O)c1ccccc1)[C@]12CC[C@@]3(C)[C@@]1(C[C@H](OC(=O)c1ccccc1)[C@H]1[C@@]4(C)CCC(=O)C(C)(C)[C@@H]4CC[C@@]13C)O2 |  | >1700 µM
CC1(C)[C@@H](O)CC[C@]2(C)[C@H]3C(=O)C=C4[C@@H]5C[C@@](C)(C(=O)OCCCCCCCCO)CC[C@]5(C)CC[C@@]4(C)[C@]3(C)CC[C@@H]12 |  | 157 µM
CC(=O)OC(C)(C)CCC(=O)[C@](C)(O)C1[C@H](O)C[C@@]2(C)[C@@H]3C[C@@H](O)[C@]4(OC(=O)c5cccc(Cl)c5)[C@@H](C[C@H](O)[C@@H](O)C4(C)C)[C@]3(C)C(=O)C[C@]12C |  | 366.5 µM
COC(=O)C1=C(CN2CCOC3CN(C(=O)OC(C)(C)C)CC32)NC(c2ncc(F)cc2F)=N[C@H]1c1ccc(F)cc1Cl |  | 7 µM
C=C(C)[C@H](OC(=O)COC)[C@H](C[C@@H](C)C1=C2C[C@H](OC(=O)COC)[C@H]3[C@@]4(C)CCC(=O)C(C)(C)[C@@H]4CC[C@]3(C)[C@@]2(C)CC1)OC(=O)COC |  | >2800 µM
COC(=O)C1=C(CN2CCNC(=O)C2)NC(c2ncc(F)cc2F)=N[C@H]1c1ccc(F)cc1Cl |  | 34 µM
C[C@H](C[C@H](OC(=O)[C@@H]1CCC(=O)O1)[C@@H](OC(=O)[C@@H]1CCC(=O)O1)C(C)(C)OC(=O)[C@@H]1CCC(=O)O1)C1=C2C[C@H](OC(=O)[C@@H]3CCC(=O)O3)[C@H]3[C@@]4(C)CCC(=O)C(C)(C)[C@@H]4CC[C@]3(C)[C@@]2(C)CC1 |  | >1600 µM
CCOC(=O)c1c(CSc2ccc(Cl)cc2)nc2c(O)c(CN3CCN(C)CC3)c(Br)cn12 | MTT | 19.4 µM
CCCC(=O)O[C@@H](C[C@@H](C)[C@]12CC[C@@]3(C)[C@@]1(C[C@H](OC(=O)CCC)[C@H]1[C@@]4(C)CCC(=O)C(C)(C)[C@@H]4CC[C@@]13C)O2)[C@@H](OC(=O)CCC)C(C)(C)OC(=O)CCC |  | >1900 µM
C=CCOC(=O)[C@@]1(C)CC[C@]2(C)CC[C@]3(C)C(=CC(=O)[C@@H]4[C@@]5(C)CCC(O)C(C)(C)[C@@H]5CC[C@]43C)[C@@H]2C1 |  | >2310 µM
CC(=O)c1c(O)c(C(C)C)cc2c(c1=O)C[C@@]1(O)CCCC(C)(C)C1CC2 | MTT | >1210 µM
CCOC(=O)C1=C(CN2CC(F)(F)[C@H]3[C@@H]2CCN3C[C@@H](OC)C(C)(C)C(=O)O)NC(c2nc(C)cs2)=N[C@H]1c1cccc(F)c1C | WST / absorbance | 21.4 µM
Cc1cc(NC(=O)c2c(C)noc2C)ccc1F |  | >100 µM
C/C=C/C(=O)O[C@@H](C[C@@H](C)C1=C2C[C@H](OC(=O)/C=C/C)[C@H]3[C@@]4(C)CCC(=O)C(C)(C)[C@@H]4CC[C@]3(C)[C@@]2(C)CC1)[C@@H](OC(=O)/C=C/C)C(C)(C)O |  | >850 µM
CCC(=O)O[C@H]1C[C@H]2[C@]3(C)C(=O)C[C@]4(C)C([C@@](C)(O)C(=O)CCC(C)(C)OC(C)=O)[C@H](OC(=O)CC)C[C@@]4(C)[C@@H]3C[C@H]3O[C@]32C(C)(C)[C@@H]1OC(=O)CC |  | >1667 µM
CCOC(=O)c1c(CSc2ccc(C)cc2)nc2c(O)c(CN3CCOCC3)c(Br)cn12 | MTT | 12.1 µM
COC(=O)C1=C(CN2CCN(C(=O)OC)CC2)NC(c2ncccc2F)=NC1c1ccc(F)cc1Br |  | 14 µM
C[C@H](C[C@H](OC(=O)CC(C)(C)C)[C@@H](OC(=O)CC(C)(C)C)C(C)(C)O)C1=C2C[C@H](OC(=O)CC(C)(C)C)[C@H]3[C@@]4(C)CCC(=O)C(C)(C)[C@@H]4CC[C@]3(C)[C@@]2(C)CC1 |  | >1200 µM
CC1(C)[C@@H](O)CC[C@]2(C)[C@H]3C(=O)C=C4[C@@H]5C[C@@](C)(C(=O)OCCCCCCO)CC[C@]5(C)CC[C@@]4(C)[C@]3(C)CC[C@@H]12 |  | 67.28 µM
CCCC(=O)O[C@@H]1[C@@H](O)C[C@@H]2C(=CC[C@@H]3[C@@]2(C)C(=O)C[C@]2(C)C([C@@](C)(O)C(=O)CCC(C)(C)OC(C)=O)[C@H](O)C[C@@]32C)C1(C)C |  | 6.3 µM
CC(C)CC(=O)O[C@@H](C[C@@H](C)C1=C2C[C@H](OC(=O)CC(C)C)[C@H]3[C@@]4(C)CCC(=O)C(C)(C)[C@@H]4CC[C@]3(C)[C@@]2(C)CC1)[C@@H](OC(=O)CC(C)C)C(C)(C)OC(=O)CC(C)C |  | >2000 µM
OCCc1c(N2CCCCC2)nc2ccc(Cl)cc2c1-c1ccccc1Cl |  | 155 µM
COC(=O)C1=C(CN2CC(F)(F)[C@@H]3[C@H]2CON3C[C@@H](F)C(C)(C)C(=O)O)NC(c2nccs2)=N[C@H]1c1cccc(F)c1C | WST / absorbance | >50 µM
CCOC(=O)c1c(CSc2cccc(OC)c2)nc2c(O)c(CN3CCCCC3)c(Br)cn12 | MTT | 20.5 µM

A second listing of 3 rows from above:

compound | method | value
Cc1cccc(NC(=O)c2c(C)noc2C)c1 |  | >100 µM
CCOC(=O)c1c(CSc2ccccc2)nc2c(O)c(CN3CCN(C)CC3)c(Br)cn12 | MTT | 31.5 µM
COC(=O)C1=C(CN2CCNC(=O)C2)NC(c2ncc(F)cc2F)=N[C@H]1c1ccc(F)cc1Cl |  | 34 µM